Test results reported in publication PMC8828469, “Enhanced fitness of SARS-CoV-2 variant of concern Alpha but not Beta” (2021).

Target: human ACE2 ectodomain with human IgG1 Fc tag (human) (UniProt Q9BYF1)
Test: BLI

SARS-CoV-2 spike protein of Beta (B.1.351), S^Beta, recombinant trimeric protein (domain or fragment)
koff: 6.27e-05 s⁻¹ and 3.37e-05 s⁻¹ and 3.66e-05 s⁻¹ | kon: 114000 M⁻¹ s⁻¹ and 103000 M⁻¹ s⁻¹ and 77700 M⁻¹ s⁻¹

Values joined by “and” are separate entries in the source; they are usually repeats but may differ in a detail not shown here. Identical values can stand only once.
